The list shows a part of the results, in another mix than the full data. Inconclusive results are not listed. Calls of active or inactive are those of the source. Calls come from the whole dose curve.
Assay: qHTS for Inhibitors of Cell Surface uPA Generation: Wild-type Protective Antigen (WT-PrAg) Counterscreen for Cherry-picked Compounds; note: 0% is about no effect
Conditions: cells, WT protective antigen toxicity counterscreen; at 115 µM (top of the series)

O=C(O)CNc1ccc([As](=O)(O)O)cc1
activity (protection): inactive: 1.18%

Source: PubChem BioAssay AID720518 (National Center for Advancing Translational Sciences (NCATS), 2013)
